PubChem BioAssay AID624099 – ICCB-Longwood – 2012

Test: 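Host factors E2 relies on to silence an HPV18 LCR reporter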 (primary screen)
Cell system: human C33A cervical carcinoma cells (HPV-negative) stably expressing BPV1 E2 and an HPV18 LCR luciferase reporter
Reagent: siRNA pool against human genes, 40 nM
Timing: 72 h
Read-out: 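Per-well luciferase luminescence, z-scored on each plate against the plate mean and SD with control wells left out, then averaged across three replicate plates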
Scale: mean z-score and z-score: higher = stronger reporter signal, weaker E2 silencing
Active means: 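Hit if mean z-score reaches 2 and two or more of three replicate z-scores also reach 2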
Shown is one part, drawn at random, of about 21,000 deposited reagents. 497 of them (2.4%) were called active. 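Higher z means weaker E2 silencing; only reporter increases were scored, and knock-downs that hurt cell survival may mask genuine repressor factors.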

With knock-down of RNF122 the results were mean z-score 1.74; z-score, replicate A = 1.89; z-score, replicate B = 1.96; z-score, replicate C = 1.37; inactive. For SLC26A9 the deposit lists mean z-score 0.24; z-score, replicate A = 0.22; z-score, replicate B = 0.3; z-score, replicate C = 0.2; inactive. With knock-down of ZDHHC23 the results were mean z-score 0.68; z-score, replicate A = 0.63; z-score, replicate B = 0.91; z-score, replicate C = 0.51; inactive. PROCA1 showed mean z-score -0.39; z-score, replicate A = -0.44; z-score, replicate B = -0.64; z-score, replicate C = -0.08; inactive. After knock-down of KRT27, the record shows mean z-score 0.08; z-score, replicate A = 0.28; z-score, replicate B = -0.33; z-score, replicate C = 0.29; inactive.

Looked up above.
PROCA1, Call: inactive
Entry of SLC26A9 under “mean z-score”: 0.24

More reagents follow.
After knock-down of NAV2-AS4 the results were mean z-score -1.3; z-score, replicate A = -1.51; z-score, replicate B = -1.35; z-score, replicate C = -1.05; inactive. Silencing of PCDHGB5 came out at: mean z-score 1.13; z-score, replicate A = 0.92; z-score, replicate B = 1.53; z-score, replicate C = 0.96; inactive. Against COG6 the deposit lists mean z-score -1.33; z-score, replicate A = -1.42; z-score, replicate B = -1.2; z-score, replicate C = -1.37; inactive. Knock-down of SLC25A10 came out at: mean z-score 0.25; z-score, replicate A = 0.29; z-score, replicate B = -0.08; z-score, replicate C = 0.52; inactive. After knock-down of PLPP4, the record shows mean z-score -0.1; z-score, replicate A = 0.29; z-score, replicate B = -0.17; z-score, replicate C = -0.42; inactive. Depletion of NCEH1 resulted in: mean z-score 0.73; z-score, replicate A = 0.59; z-score, replicate B = 0.87; z-score, replicate C = 0.73; inactive.

LINC01106 scored mean z-score 0.44; z-score, replicate A = 0.15; z-score, replicate B = 0.48; z-score, replicate C = 0.7; inactive.
